Results of unrelated studies side by side (data: NIAID ChemDB).

Common to all: whole-cell or culture tests; agent: Mycobacterium fortuitum; endpoint: MIC50

Lines come from different laboratories, so protocols vary.

compound	strain	result
CC[C@@H](CO)NCCN[C@@H](CC)CO	-	32 µg/mL
CN[C@@H]1[C@@H](O)[C@@H](O[C@@H]2[C@@H](O)[C@H](O[C@H]3O[C@H](CN)CC[C@H]3N)[C@@H](N)C[C@H]2N)OC[C@]1(C)O	18 strains	8 µg/mL
CC[C@H]1OC(=O)[C@H](C)[C@@H](O[C@H]2C[C@@](C)(OC)[C@@H](O)[C@H](C)O2)[C@H](C)[C@@H](O[C@@H]2O[C@H](C)C[C@H](N(C)C)[C@H]2O)[C@](C)(O)C[C@@H](C)CN(C)[C@H](C)[C@@H](O)[C@]1(C)O	48 strains	>64 µg/mL
CCn1cc(C(=O)O)c(=O)c2cc(F)c(N3CCNCC3)cc21	80 strains	1 µg/mL
CN(C)[C@@H]1C(=O)C(C(N)=O)=C(O)[C@@]2(O)C(=O)C3=C(O)c4c(O)cccc4[C@@](C)(O)[C@H]3C[C@@H]12	-	>64 µg/mL
CO[C@H]1/C=C/O[C@@]2(C)Oc3c(C)c(O)c4c(O)c(c5c(c4c3C2=O)NC2(CCN(CC(C)C)CC2)N=5)=NC(=O)/C(C)=C\C=C\[C@H](C)[C@H](O)[C@@H](C)[C@@H](O)[C@@H](C)[C@H](OC(C)=O)[C@@H]1C	20 strains	3.13 µg/mL
NNC(=O)c1ccncc1	-	2 µg/mL
CO[C@@]1(NC(=O)Cc2cccs2)C(=O)N2C(C(=O)O)=C(COC(N)=O)CS[C@@H]21	13 strains	12.5 µg/mL
CCCN1CCN(c2cc(=O)c3nc4c(oc3c2)c2c(=O)c3c(O)c(C)c5c(c34)=C(O)[C@@](C)(O/C=C/[C@H](OC)[C@@H](C)[C@@H](OC(C)=O)[C@H](C)[C@H](O)[C@H](C)[C@@H](O)[C@@H](C)/C=C/C=C(/C)C(=O)N2)O5)CC1	20 strains	25 µg/mL
O=C(O)c1cn(-c2ccc(F)cc2)c2cc(N3CCNCC3)c(F)cc2c1=O	19 strains	0.5 µg/mL
C[C@H]1NCc2cc(-c3ccc4c(=O)c(C(=O)O)cn(C5CC5)c4c3OC(F)F)ccc21	10 strains	0.13 µg/mL
CN1CCN(c2cc3c(cc2F)c(=O)c(C(=O)O)cn3-c2ccc(F)cc2)CC1	19 strains	1 µg/mL
CO[C@@H]1[C@@H](O[C@@H]2O[C@H](C)[C@@H](O[C@H]3C[C@@](C)(O)[C@@H](OC(=O)CC(C)C)[C@H](C)O3)[C@H](N(C)C)[C@H]2O)[C@@H](CC=O)C[C@@H](C)[C@@H](O)/C=C/C=C/C[C@@H](C)OC(=O)C[C@H]1OC(C)=O	48 strains	>64 µg/mL
CCNCC1CCN(c2c(F)cc3c(=O)c(C(=O)O)cn(CC)c3c2F)C1	19 strains	1 µg/mL
C[C@@H]1CN(c2c(F)c(N)c3c(=O)c(C(=O)O)cn(C4CC4)c3c2F)C[C@H](C)N1	-	1.5 µg/mL
CO[C@H]1/C=C/O[C@@]2(C)Oc3c(C)c(O)c4c(=O)c(c5oc6cc(N7CCN(CC(C)C)CC7)cc(=O)c6nc5c4c3=C2O)NC(=O)/C(C)=C\C=C\[C@H](C)[C@H](O)[C@@H](C)[C@@H](O)[C@@H](C)[C@H](OC(C)=O)[C@@H]1C	20 strains	>100 µg/mL
CC(=O)O[C@H]1C[C@@]2(C)[C@@H](C[C@@H](O)[C@H]3[C@@]4(C)CC[C@@H](O)[C@@H](C)[C@@H]4CC[C@@]32C)/C1=C(\CCC=C(C)C)C(=O)O	19 strains	64 µg/mL

2 of the rows above, restated:

compound | strain | result
CN(C)[C@@H]1C(=O)C(C(N)=O)=C(O)[C@@]2(O)C(=O)C3=C(O)c4c(O)cccc4[C@@](C)(O)[C@H]3C[C@@H]12 | - | >64 µg/mL
CC[C@H]1OC(=O)[C@H](C)[C@@H](O[C@H]2C[C@@](C)(OC)[C@@H](O)[C@H](C)O2)[C@H](C)[C@@H](O[C@@H]2O[C@H](C)C[C@H](N(C)C)[C@H]2O)[C@](C)(O)C[C@@H](C)CN(C)[C@H](C)[C@@H](O)[C@]1(C)O | 48 strains | >64 µg/mL

An empty or dashed field is not shown. MIC50, MIC90 and the like: level of inhibition, or share of isolates inhibited.